# Results deposited as PubChem BioAssay AID624099 (ICCB-Longwood, 2012).
# Test: 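Knock-downs relieving repression by E2 of an HPV18 LCR luciferase reporter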 (primary screen)
# Cell system: human C33A cervical carcinoma cells (HPV-negative) stably expressing BPV1 E2 and an HPV18 LCR luciferase reporter
# Reagent: siRNA pool against human genes, 40 nM
# Time to read-out: 72 h
# Read-out: 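Per-well luciferase luminescence, z-scored on each plate against the plate mean and SD with control wells left out, then averaged across three replicate plates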
# Scale: mean z-score and z-score: higher = stronger reporter signal, weaker E2 silencing
# Rule for the call: 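Hit if mean z-score reaches 2 and two or more of three replicate z-scores also reach 2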
# This is one part, drawn at random, of about 21,000 reagents. In the full data, 497 (2.4%) were called active. 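Higher z means weaker E2 silencing; only reporter increases were scored, and knock-downs that hurt cell survival may mask genuine repressor factors.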
gene knocked down,mean z-score,"z-score, replicate A","z-score, replicate B","z-score, replicate C",activity call
LOC388577 (retired record),0.68,0.85,0.81,0.37,inactive
VWC2L,-0.74,-1.08,-0.92,-0.23,inactive
CES2,0.25,-0.02,0.22,0.55,inactive
ANGPTL5,-0.33,0,-0.56,-0.44,inactive
LOC389636 (retired record),1.48,1.28,1.56,1.58,inactive
ALDH3A1,-0.84,-0.44,-1.3,-0.78,inactive
CYP4V2,-0.72,-0.88,-0.72,-0.57,inactive
RPP40,-0.58,-0.7,-0.62,-0.43,inactive
STK31,-0.15,-0.2,-0.16,-0.1,inactive
WASHC5,-0.66,-0.47,-0.77,-0.73,inactive
TRAIP,-1.01,-0.94,-1.23,-0.85,inactive
TTC36,-1.26,-1.53,-1.66,-0.6,inactive
SLC2A8,1.21,1,1.01,1.62,inactive
MAGEA9,-1.43,-1.45,-1.24,-1.59,inactive
COLEC10,-1.49,-1.61,-1.44,-1.42,inactive
CCDC51,2.01,2.01,2.07,1.96,active
DCX,-0.59,-0.39,-0.75,-0.62,inactive
KBTBD3,-0.26,0.05,-0.2,-0.63,inactive
PRSS12,1.8,1.7,1.98,1.71,inactive
IL22RA2,-0.55,-0.65,-0.72,-0.27,inactive
NT5DC3,0.72,1.05,0.26,0.85,inactive
RPL41,0.59,0.65,0.58,0.55,inactive
KRT85,1.42,1.65,1.32,1.28,inactive
FAM13B,-0.61,-0.03,-0.89,-0.92,inactive
RAB1A,1.73,2,1.62,1.56,inactive
TNFRSF1B,-0.98,-0.97,-0.93,-1.03,inactive
ATP13A3-DT,-0.78,-0.54,-0.85,-0.96,inactive
HAUS6,-0.92,-1.03,-0.97,-0.77,inactive
CPB2,-1.31,-1.44,-1.27,-1.22,inactive
CIART,-0.97,-0.82,-0.69,-1.4,inactive
TSPAN32,-0.18,-0.1,-0.4,-0.04,inactive
TTC21A,0.8,0.93,0.34,1.12,inactive
LCE2A,-0.29,-0.38,-0.49,0.01,inactive
ZNF578,0.58,-0.03,0.62,1.14,inactive
RGS9BP,-0.36,-0.47,-0.52,-0.1,inactive
RIMOC1,0.95,0.78,0.99,1.06,inactive
NUDT2,-0.35,-0.53,-0.34,-0.19,inactive
ATP2B4,1.33,1.43,1.2,1.36,inactive
APOL1,3.39,3.38,3.65,3.15,active
H3C6,-0.53,-0.59,-0.27,-0.73,inactive
MOCS1,0.04,-0.47,0.07,0.52,inactive
U2AF2,-1.9,-2.2,-1.92,-1.58,inactive
ERGIC3,-0.14,-0.64,0,0.21,inactive
ARFGEF3,0.44,0.61,-0.09,0.79,inactive
CPXCR1,1.03,1.1,0.97,1.03,inactive
SPATA31C2,-1.09,-1.18,-1.01,-1.09,inactive
ATRX,-0.35,-0.36,-0.41,-0.29,inactive
PSMB1,-0.36,-0.75,-0.24,-0.1,inactive
TMEM154,-0.67,-0.73,-0.39,-0.88,inactive
FRMPD2,-0.01,0,-0.28,0.24,inactive
STX5,-0.57,-0.39,-0.56,-0.76,inactive
SLC6A17,0.58,1.01,0.12,0.62,inactive
ITGB4,-0.73,-0.87,-0.69,-0.63,inactive
TEX13A,1.6,1.28,1.89,1.64,inactive
SUCLG1,0.95,0.99,0.82,1.05,inactive
PRXL2A,0.09,0.08,-0.04,0.24,inactive
KMT5B,0.06,0.16,-0.51,0.52,inactive

Taken from above.
COLEC10, z-score, replicate C = -1.42
For “mean z-score”, ERGIC3 reads -0.14
Under “z-score, replicate A”, CCDC51 is entered as 2.01
Value of RPP40 in “z-score, replicate C”: -0.43
